Assay results as given in patent publication US20190338048A1.

Target: Recombinant HER2 protein (HER2-ECD) (UniProt P04626)
Experiment: SPR as for KD

Change in KD of H2L2 Fab vs wild type, -(log(KD design)-log(KD wt)) | Substance
0.05 log units | Pertuzumab Fab, H2 L143I_S186K / L2 V133D_Q160E
-0.01 log units | Pertuzumab Fab, H2 V177I_S188K / L2 V133L_S176D_T178E
-0.01 log units | Pertuzumab Fab, H2 L124R_S186R / L2 V133G_S176D_T180E
-0.02 log units | Pertuzumab Fab, H2 L124R_S186K / L2 V133G_S176D_T178E
-0.03 log units | Pertuzumab Fab, H2 L124R_Q179K / L2 V133G_S176D_T178E
0.02 log units | Pertuzumab Fab, H2 L124R_Q179K / L2 V133G_S176D_T180E
